Measured values: ChEMBL document CHEMBL4303101, “Identification of inhibitors of SARS-CoV-2 in-vitro cellular toxicity in human (Caco-2) cells using a large scale drug repurposing collection” (2020)

Test system: SARS-CoV-2
Settings: Homo sapiens; Caco-2; 10 uM

With CN(C)CCS the inhibition was -7.17%.
